Measurements as given in patent US8962697B2 (Interface Biologics Inc., priority 2006, dated 2015).

Test system: SAP
Test: SAP bioresponsive degradation assay
Format: biochemical
Settings: 100 nM SAP, 1 μM substrate, pH 3.3, 37° C., 3 hours

Question: How did the “Degradation of peptide substrate by SAP” value turn out when “Pro-arg-arg-ile-sys-val (PRRICV) [LAR-7048]” was run?
Answer: The value was “No degradation”.

Question: Which “Degradation of peptide substrate by SAP” value does the source give for “val-phe-phe-arg-arg-gln-thr-ala (VFFRRQTA) [LAR-7047]” here?
Answer: The value was “No degradation”.
